Anti-infective test results gathered from many reports (values: NIAID ChemDB through PubChem).

Shared fields: whole-cell or culture tests

ECn: concentration that inhibits the pathogen or its effect by n%. Two numbers with a dash give a range or band. Percent inhibition refers to the dose given; in toxicity tests it is the harm to the cells. Blank or dashed fields: not listed here. Rows are shuffled and stem from different studies.

structure,cell line,read by,endpoint,strain or isolate,dose,species,result
CC(C)C1=C2[C@H]3CC[C@@H]4[C@@]5(C)CC[C@H](OC(=O)[C@H]6C[C@@H](C(=O)O)C6(C)C)C(C)(C)[C@@H]5CC[C@@]4(C)[C@]3(C)CC[C@@]2([C@@H](O)CNCCN2CCCCC2)CC1=O,MT-2,p24 / ELISA,EC50,92HT599,-,HIV-1,<1 µM
COc1ccc(S(=O)(=O)N(CC2CCCC2)CC(F)(F)C(=O)[C@@H](Cc2ccccc2)NC(=O)O[C@H]2CCOC2)cc1,CEM,p24,EC90,IIIB,-,HIV-1,1 µM
CC(C)C1=C2[C@H]3CC[C@@H]4[C@@]5(C)CC[C@H](OC(=O)[C@H]6C[C@@H](C(=O)O)C6(C)C)C(C)(C)[C@@H]5CC[C@@]4(C)[C@]3(C)CC[C@@]2(CCNCC(C)(C)NC(=O)c2ccc(N3CCOCC3)cc2)CC1=O,MT-2,p24 / ELISA,EC50,92HT599,-,HIV-1,<1 µM
O=C1[C@@H](Cc2ccccc2)NC(=S)N1c1ccccc1,MT-4,RT activity,inhibition,-,0.1 µg/mL,HIV-2,42%
Cc1ccc(C)n1-c1ccc(C(=O)O)c(O)c1,PBMC/5.25M7,luciferase / cell fusion,EC90,93TH051 X4R5 CLADE E,-,HIV-1,17.76 µM
O=C(NCCc1ccccc1)Nc1nc2ccccc2s1,MT-4,RT activity,inhibition,-,0.1 µg/mL,HIV-2,1%
[2H]C(CCN)(CNC(=O)c1ccc(Cl)cc1)NC(=O)C[C@@]12CC[C@]3(C)[C@H](CC[C@@H]4[C@@]5(C)CC[C@H](OC(=O)[C@H]6C[C@@H](C(=O)O)C6(C)C)C(C)(C)[C@@H]5CC[C@]43C)C1=C(C(C)C)C(=O)C2,MT-2,p24 / ELISA,EC50,92HT599,-,HIV-1,<1 µM
COc1ccc(S(=O)(=O)N(CC(C)C)CC(O)CCN2C[C@H]3CCCC[C@H]3C[C@H]2C(=O)NC(C)(C)C)cc1,CEM,p24,EC90,IIIB,-,HIV-1,1 µM
CC(C)C1=C2[C@H]3CC[C@@H]4[C@@]5(C)CC[C@H](OC(=O)[C@H]6C[C@@H](C(=O)O)C6(C)C)C(C)(C)[C@@H]5CC[C@@]4(C)[C@]3(C)CC[C@@]2(CCNC(=O)c2ccc(O[C@H]3CCOC3)cc2)CC1=O,MT-2,p24 / ELISA,EC50,92HT599,-,HIV-1,<1 µM
O=C(NCCc1ccccc1)Nc1nncs1,MT-4,RT activity,inhibition,-,100 µg/mL,HIV-2,96%
COc1ccc(S(=O)(=O)N(CC(C)C)C[C@@H](O)C[C@@H](CNCC(C)C)Cc2ccccc2)cc1,CEM,p24,EC90,IIIB,-,HIV-1,1 µM
Cc1ccnc(NC(=O)NCCc2ccccc2)n1,MT-4,RT activity,inhibition,-,10 µg/mL,HIV-2,27%
Nc1cccc(S(=O)(=O)N(CC2CCCC2)C[C@@H](O)CN(CCc2ccccc2)CC(=O)c2ccccc2)c1,CEM,p24,EC90,IIIB,-,HIV-1,1 µM
CCOc1ccccc1CCNC(=S)Nc1nccs1,MT-4,cytopathic effect / XTT,inhibition,-,10 µg/mL,HIV-2,91%
Cc1ccc(C(=O)NC(C)(C)CNC(=O)C[C@@]23CC[C@]4(C)[C@H](CC[C@@H]5[C@@]6(C)CC[C@H](OC(=O)[C@H]7C[C@@H](C(=O)O)C7(C)C)C(C)(C)[C@@H]6CC[C@]54C)C2=C(C(C)C)C(=O)C3)nc1,MT-2,p24 / ELISA,EC50,92HT599,-,HIV-1,<1 µM
O=C(NCCc1ccccc1)Nc1cncc(Cl)n1,MT-4,cytopathic effect / XTT,inhibition,-,10 µg/mL,HIV-2,16–60%
COc1ccc(S(=O)(=O)N(CC(C)C)C[C@@H](O)CCN(CC2CCCC2)S(=O)(=O)c2ccccn2)cc1,CEM,p24,EC90,IIIB,-,HIV-1,1 µM
COc1ccc(C(=O)NC[C@H](O)[C@@]23CC[C@]4(C)[C@H](CC[C@@H]5[C@@]6(C)CC[C@H](OC(=O)[C@H]7C[C@@H](C(=O)O)C7(C)C)C(C)(C)[C@@H]6CC[C@]54C)C2=C(C(C)C)C(=O)C3)cc1,MT-2,p24 / ELISA,EC50,92HT599,-,HIV-1,<1 µM

The last 2 rows once more:

structure | cell line | read by | endpoint | strain or isolate | dose | species | result
COc1ccc(S(=O)(=O)N(CC(C)C)C[C@@H](O)CCN(CC2CCCC2)S(=O)(=O)c2ccccn2)cc1 | CEM | p24 | EC90 | IIIB | - | HIV-1 | 1 µM
COc1ccc(C(=O)NC[C@H](O)[C@@]23CC[C@]4(C)[C@H](CC[C@@H]5[C@@]6(C)CC[C@H](OC(=O)[C@H]7C[C@@H](C(=O)O)C7(C)C)C(C)(C)[C@@H]6CC[C@]54C)C2=C(C(C)C)C(=O)C3)cc1 | MT-2 | p24 / ELISA | EC50 | 92HT599 | - | HIV-1 | <1 µM